Compound potency records, mixed from different reports. Data source: NIAID ChemDB in PubChem.

All rows: growth or infection tests

ECn is the concentration giving n% inhibition of infection, replication or growth.

smiles | organism | strain or isolate | cells | method | endpoint | tested at | value
CCn1cnc(=N)c2[nH]cnc21 | Herpes simplex virus 1 | - | BSC-1 | plaque count | inhibition | 12 µg/mL | 0%
O=S(=O)(O)c1cc(O)c2c(O)c(N=Nc3ccccc3)c(S(=O)(=O)O)cc2c1 | Herpes simplex virus | - | Human conjunctiva cells | cytopathic effect | inhibition | 10 µg/mL | 90%
Nc1nc2c(ncn2COCCO)c(=O)[nH]1 | Herpes simplex virus 2 | R-325 (acyclovir-resistant) | HFF | cytopathic effect | EC50 | - | >50 µg/mL
CCN(C(=O)C1(Nc2nc3ccc(NC(=O)OC(C)(C)C)c(C)c3c(=O)o2)CCCC1)c1cccnc1 | Herpes simplex virus 1 | - | VERO | plaque count | EC90 | - | >12.5 µM
CCCn1cnc(=N)c2[nH]cnc21 | Herpes simplex virus 1 | - | BSC-1 | plaque count | inhibition | 12 µg/mL | 0%
Cc1cc(-c2ccc(N=Nc3ccc4c(S(=O)(=O)O)cc(S(=O)(=O)O)c(N)c4c3O)c(C)c2)ccc1N=Nc1ccc2c(S(=O)(=O)O)cc(S(=O)(=O)O)c(N)c2c1O | Herpes simplex virus | - | Human amnion AV3 cells | cytopathic effect | inhibition | 10 µg/mL | 80%
Cn1cc(C(=O)NCc2ccc(Cl)cc2)c(=O)c2cc(CN3CCOCC3)ccc21 | Herpes simplex virus 2 | AG-3 (ACV-resistant) | HFF | plaque count | EC50 | - | 3 µM
Cc1c(NC(=O)CCCNC(=O)OC(C)(C)C)ccc2nc(NC(C)(C)C(=O)N(C)CCc3ccccn3)oc(=O)c12 | Herpes simplex virus 1 | - | VERO | plaque count | EC90 | - | >12.5 µM
O=S(=O)([O-])c1cc(S(=O)(=O)[O-])c2cc(NS(=O)(=O)c3ccccc3)ccc2c1 | Herpes simplex virus | - | Human conjunctiva cells | cytopathic effect | inhibition | 50 µg/mL | 0%
CCCCn1cnc(=N)c2[nH]cnc21 | Herpes simplex virus 1 | - | BSC-1 | plaque count | inhibition | 50 µg/mL | 0%
Nc1cc(S(=O)(=O)[O-])cc2cc(S(=O)(=O)[O-])ccc12 | Herpes simplex virus | - | Human amnion AV3 cells | cytopathic effect | inhibition | 50 µg/mL | 0%
Cc1c(NC(=O)OC(C)(C)C)ccc2nc(N(CCc3ccccc3)C(=O)NCc3ccncc3)oc(=O)c12 | Herpes simplex virus 1 | - | VERO | plaque count | EC90 | - | >25 µM
O=C(Nc1ccc2c(O)c(N=Nc3ccc(N=Nc4ccc(S(=O)(=O)O)cc4)cc3)c(S(=O)(=O)O)cc2c1)c1ccccc1 | Herpes simplex virus | - | Human conjunctiva cells | cytopathic effect | inhibition | 50 µg/mL | 90%
Nc1nc2c(ncn2COC(CO)CO)c(=O)[nH]1 | Herpes simplex virus 1 | SC16 (mutant TR7) | WI-38 | plaque count | inhibition | 16 µM | 90%
Cc1c(NC(=O)OC(C)(C)C)ccc2nc(N3CCCC3(OCc3ccccc3)C(=O)N(C)CCc3ccccn3)oc(=O)c12 | Herpes simplex virus 1 | - | VERO | plaque count | EC90 | - | 5.9 µM
O=S(=O)(O)c1ccc(N=Nc2c(O)ccc3cc(S(=O)(=O)O)ccc23)cc1 | Herpes simplex virus | - | Human conjunctiva cells | cytopathic effect | inhibition | 5 µg/mL | 0%
Cc1c(NC(=O)OC(C)(C)C)ccc2nc(N(CCc3ccccc3)C(=O)N(C)CCc3cccnc3)oc(=O)c12 | Herpes simplex virus 1 | - | VERO | plaque count | EC90 | - | 5.1 µM
O=c1[nH]c(=O)n([C@H]2C[C@H](O)[C@@H](CO)O2)cc1I | Herpes simplex virus 1 | CUT | - | - | MIC | - | 0.5 µg/mL
Cc1c(NC(=O)c2scc(S(=O)(=O)C(C)C)c2Cl)ccc2nc(NC(C)(C)C(=O)N(C)CCc3ccccn3)oc(=O)c12 | Herpes simplex virus 1 | - | VERO | plaque count | EC90 | - | >12.5 µM
O=S(=O)([O-])c1cc(NS(=O)(=O)c2ccccc2)c2c(S(=O)(=O)[O-])cc(S(=O)(=O)[O-])cc2c1 | Herpes simplex virus | - | Human conjunctiva cells | cytopathic effect | inhibition | 10 µg/mL | 50%
N=c1ncn(Cc2cccc([N+](=O)[O-])c2)c2nc[nH]c12 | Herpes simplex virus 1 | - | BSC-1 | plaque count | inhibition | 50 µg/mL | 0%
O=C(NCc1ccc(Cl)cc1)c1cn2c3c(cc(CN4CCOCC4)cc3c1=O)OC(c1cccnc1)C2 | Herpes simplex virus 2 | MS (WILD TYPE) | HFF | plaque count | EC50 | - | 6 µM

Repeating the first 2 entries:

smiles,organism,strain or isolate,cells,method,endpoint,tested at,value
CCn1cnc(=N)c2[nH]cnc21,Herpes simplex virus 1,-,BSC-1,plaque count,inhibition,12 µg/mL,0%
O=S(=O)(O)c1cc(O)c2c(O)c(N=Nc3ccccc3)c(S(=O)(=O)O)cc2c1,Herpes simplex virus,-,Human conjunctiva cells,cytopathic effect,inhibition,10 µg/mL,90%

An empty or dashed field is not shown. Conditions beyond the fields shown may differ between rows. Percent inhibition refers to the dose given; in toxicity tests it is the harm to the cells.